Anti-infective test results gathered from many reports (values: NIAID ChemDB through PubChem).

All rows: whole-cell or culture tests; agent: HIV-1

Conditions beyond the fields shown may differ between rows.

structure,changes,read-out,conditions,read by,strain or isolate,cells,value
CC(C)C[C@H](NC(=O)[C@H](Cc1ccccc1)C[C@H](O)[C@H](Cc1ccccc1)NC(=O)OC(C)(C)C)C(=O)N[C@@H](Cc1ccccc1)C(N)=O,,EC50,,antigen,IIIB,H9,<6 µM
C[C@H](Cn1cnc2c(N)ncnc21)OCP(=O)(O)O,gp120 T90I T188N T236A N289K T297I S334N T341I N386D,EC50,,syncytia,HHA-500SN (GP120-T90I T188N T236A N289K T297I S334N T341I N386D),CEM,4.1 µg/mL
Cc1cc(C#N)cc(C)c1Oc1ccc([N+](=O)[O-])c(NC2CCN(Cc3ccc(C(N)=O)cc3)CC2)n1,,EC50,,MTT,IIIB,MT-4,0.031 µg/mL
CC(C)(C)NC(=O)[C@@H]1C[C@H](Cl)CN1C(=O)[C@@H](O)[C@H](Cc1ccccc1)NC(=O)OC1CCOC1,,EC50,,,IIIB,CEM,<4.8 µM
COc1cc([C@@H]2c3cc4c(cc3[C@H](O)[C@H]3COC(=O)[C@H]23)OCO4)cc(OC)c1O,,EC50,,XTT,IIIB,MT-2,>0.0066 µg/mL
O=C1C(=Cc2ccc(O)c(O)c2)C(=O)c2ccccc21,,EC50,,cytopathic effect / MTT,,MT-4,>32 µM
C/C(=C(/CCOC(=O)C(C)C)SS/C(CCOC(=O)C(C)C)=C(\C)N(C=O)Cc1cnc(C)nc1N)N(C=O)Cc1cnc(C)nc1N,,EC50,,p24,IIIB,MOLT-4/HIV-1(IIIB) + MOLT-4,>50 µM
CC(C)=CCN1Cc2cc(Cl)cc3[nH]c(=S)n(c23)C[C@@H]1C,RT-M41L T215Y L100I,EC50,,,,MT-4,<3 µM
Cc1ccnc2c1NC(=O)c1cccnc1N2C1CC1,,EC50,,p24,rHXB2,MT-4,<0.1 µM
O=C(Nc1ccccc1-c1n[nH]c(=S)[nH]c1=O)C(F)(F)F,,EC50,,cytopathic effect / XTT,RF,CEM,134 µg/mL
C1CNCCNCC(CCOCCOCCC2CNCCNCCCNCCNC2)CNCCNC1,,EC50,,syncytia,SF2,MOLT-4,115 µM
COP(=O)(O)C[C@H](NP(=O)(O)OC[C@@H]1C=C[C@H](n2cc(C)c(=O)[nH]c2=O)O1)C(=O)O,,EC50,,MTT,IIIB,MT-4,0.47 µM
CC[C@H](C)[C@H](NC(=O)[C@H](C/C=C/c1ccccc1)C[C@H](O)[C@H](Cc1ccccc1)NC(=O)OC(C)(C)C)C(=O)NCc1nc2ccccc2[nH]1,,EC50,,antigen,IIIB,H9,<0.012 µM
Nc1nc2c(ncn2[C@@H]2OC[C@](CO)(CCP(=O)(O)O)[C@@H]2F)c(=O)[nH]1,,EC50,,MTT,LAI,PBMC,88 µM
Cc1cc(SC2=C(O)C[C@@](CCc3ccc(N)cc3)(C(C)C)OC2=O)c(C(C)(C)C)cc1CO,,EC50,,,Resistant isolates,PBMC,0.2 µM
CC(C)(C)NC(=O)c1ccccc1SC[C@H](O)[C@H](Cc1ccccc1)NC(=O)[C@H](CC(N)=O)NC(=O)c1ccc2ccccc2n1,,EC50,,,,MT-2,4.38 µg/mL
CC(C)(O[C@@H]1O[C@H](CO)[C@@H](O)[C@H](O)[C@H]1O)[C@H]1Cc2cc3ccc(=O)oc3cc2O1,,EC50,,p24,IIIB,H9,>122.5 µM
CCOc1cc(/C=C2\SC(=O)N(CC(=O)c3ccccc3)C2=O)c(Br)cc1OCc1ccc(C(=O)O)cc1,,EC50,,MTT / absorbance,IIIB,MT-4,3.99 µM
c1cnc2c(c1)cc(CN1CCNCCNCCNCC1)c1cccnc12,,EC50,6 d,cytopathic effect / MTT,IIIB,MT-4,>17.6 µM
Cc1cc(C)c(Nc2ccc([N+](=O)[O-])c(NC3CCN(Cc4ccc(C(N)=O)cc4)CC3)n2)c(C)c1,Resistant strain (K103N + Y181C),EC50,,MTT,IIIB,MT-4,>25 µM
Cc1ccc(O)c(C)c1C(=O)N[C@@H](Cc1ccccc1)[C@H](O)C(=O)N1C[C@@H](Cl)C[C@H]1C(=O)NC(C)(C)C,,EC50,,,IIIB,CEM,<0.105 µM
CC(C)C[C@H](NC(=O)[C@H](Cc1ccccc1)C[C@H](O)[C@H](Cc1ccccc1)NC(=O)OC(C)(C)C)C(=O)NCc1ccccc1,,EC50,,antigen,IIIB,H9,<3 µM
CCCC[C@@H]1c2cc(CNC)ccc2[C@H](NC(=O)C(=O)Nc2ccc(Cl)c(F)c2)[C@H]1CN=C(N)N,,EC50,,luciferase / entry,,Cf2Th-CD4/CCR5,>100 µM
COc1cc(C[C@@]2(O)C(=O)OC[C@@H]2Cc2ccc(OC)c(OC)c2)ccc1O,,EC50,,XTT,IIIB,MT-2,0.2 µg/mL
CCCc1c(O)cccc1C(=O)N[C@@H](Cc1ccccc1)[C@H](O)C(=O)N1C[C@@H](Cl)C[C@H]1C(=O)NC(C)(C)C,,EC50,,,IIIB,CEM,<0.23 µM
COc1cc([C@@H]2c3cc4c(cc3CC3COC(=O)C32)OCO4)cc(OC)c1OC,,EC50,,XTT,IIIB,MT-2,>0.01 µg/mL
O=C(/C=C/c1ccc(O)c(O)c1)c1ccccc1,,EC50,,cytopathic effect / MTT,,MT-4,>1.7 µM
N#C/C=C1/c2cc(S)cc([N+](=O)[O-])c2-c2c1cc(S(=O)(=O)NCc1ccccc1)cc2[N+](=O)[O-],,EC50,,cytopathic effect / syncytia / microscopy,IIIB,C8166,32.78 µM
C=CNC(=S)n1nc(-c2ccccc2NC(=O)C(F)(F)F)c(=O)n(C(=S)NC=C)c1=S,,EC50,,cytopathic effect / XTT,RF,CEM,7.92 µg/mL
Nc1c(S(=O)(=O)O)cc2c3c(cc(S(=O)(=O)O)cc13)C(=O)N(NC(=O)N/N=C/c1ccc(-c3ccc(/C=N/NC(=O)NN4C(=O)c5cc(S(=O)(=O)O)cc6c(N)c(S(=O)(=O)O)cc(c56)C4=O)cc3)cc1)C2=O,,EC50,,RT activity,LAV,,<80 µM
CN(C(=O)Cn1cccn1)C1CCCn2c1nc(C(=O)NCc1ccc(F)cc1)c(O)c2=O,,EC95,10% FBS,p24 / ELISA,IIIB,MT-4,>1 µM
CCC(C1=C(O)CC(CC)(c2cccc(NS(=O)(=O)c3ccc(C#N)cn3)c2)OC1=O)c1cccc(NS(=O)(=O)c2ccc(C#N)cn2)c1,,EC50,,p24,IIIB,H9,>3 µM
Cc1cn([C@H]2C=C[C@@H](COP(=O)(O)O)O2)c(=O)[nH]c1=O,,EC50,,MTT,IIIB,MT-4,0.39 µM
CC(=O)O[C@@H]1[C@H](OC(=O)CC(C)C)c2c(ccc3ccc(=O)oc23)OC1(C)C,,EC50,,p24,IIIB,H9,1.3 µM
CC[C@@]1(O)C(=O)OCc2c1cc1n(c2=O)Cc2cc3ccccc3nc2-1,,EC50,,cytopathic effect / MTT,,MT-4,>0.01 µM
Cc1cc(C)c(Oc2ccc(N)c(NC3CCN(Cc4ccc(S(N)(=O)=O)cc4)CC3)n2)c(C)c1,Resistant strain (K103N + Y181C),EC50,,MTT,IIIB,MT-4,1.5 µM
COc1cc(C[C@H]2C(=O)OC[C@@H]2Cc2ccc(OC)c(OC)c2)ccc1O,,EC50,,XTT,IIIB,MT-2,0.1 µg/mL
Cc1cn([C@H]2C=C[C@@H](COP(=O)(O)N[C@@H](CC(=O)O)C(=O)O)O2)c(=O)[nH]c1=O,,EC50,,MTT,IIIB,MT-4,0.36 µM
Cc1cc(C#N)cc(C)c1Oc1ccc(N)c(NC2CCN(Cc3ccncc3)CC2)n1,,EC50,,MTT,IIIB,MT-4,0.056 µg/mL
CC(=O)N(C)C1CCn2c1nc(C(=O)NCc1ccc(F)cc1)c(O)c2=O,,EC95,10% FBS,p24 / ELISA,IIIB,MT-4,>1 µM
CCc1c(O)cccc1C(=O)N[C@@H](Cc1ccccc1)[C@H](O)C(=O)N1C[C@@H](Cl)C[C@H]1C(=O)NC(C)(C)C,,EC50,,,IIIB,CEM,<0.12 µM
CC(C)=CCOc1c2ccoc2cc2oc(=O)ccc12,,EC50,,p24,IIIB,H9,40.7 µM
Nc1c(S(=O)(=O)O)cc2c3c(cc(S(=O)(=O)O)cc13)C(=O)N(NC(=O)N/N=C\c1ccc(-c3ccc(C=O)cc3)cc1)C2=O,,EC90,,RT activity,LAV,,465.5 µM
O=C(n1c2ccccc2c2n[nH]c(=S)nc21)C(F)(F)F,,EC50,,cytopathic effect / XTT,RF,CEM,>12.5 µg/mL
COC[C@@H](c1ccc(C(F)(F)F)cc1)N1CCN(C2(C)CCN(C(=O)c3c(C)ncnc3C)CC2)C[C@@H]1C,,EC50,,p24,M-tropic,PBMC,0.0075 µM
Cc1cn([C@H]2C[C@H](N=[N+]=[N-])[C@@H](CO)O2)c(=O)[nH]c1=O,F227L V106A,EC50,,MTT,,MT-4,0.036 µM
CC1(C)OC1COc1c2ccoc2cc2oc(=O)ccc12,,EC50,,p24,IIIB,H9,31.5 µM
CCc1cc(NCc2nc3c(C)ccc(C)c3o2)c(=O)[nH]c1C,,EC95,,p24,rA17,MT-4,100 µM

A second listing of 5 rows from above:

structure | changes | read-out | conditions | read by | strain or isolate | cells | value
CC1(C)OC1COc1c2ccoc2cc2oc(=O)ccc12 |  | EC50 |  | p24 | IIIB | H9 | 31.5 µM
CCc1c(O)cccc1C(=O)N[C@@H](Cc1ccccc1)[C@H](O)C(=O)N1C[C@@H](Cl)C[C@H]1C(=O)NC(C)(C)C |  | EC50 |  |  | IIIB | CEM | <0.12 µM
Nc1nc2c(ncn2[C@@H]2OC[C@](CO)(CCP(=O)(O)O)[C@@H]2F)c(=O)[nH]1 |  | EC50 |  | MTT | LAI | PBMC | 88 µM
c1cnc2c(c1)cc(CN1CCNCCNCCNCC1)c1cccnc12 |  | EC50 | 6 d | cytopathic effect / MTT | IIIB | MT-4 | >17.6 µM
Cc1cc(C#N)cc(C)c1Oc1ccc([N+](=O)[O-])c(NC2CCN(Cc3ccc(C(N)=O)cc3)CC2)n1 |  | EC50 |  | MTT | IIIB | MT-4 | 0.031 µg/mL

ECn is the concentration giving n% inhibition of infection, replication or growth. Blank or dashed fields: not listed here.